Pooled drug test results. Numbers come from NIAID ChemDB, via PubChem.

Shared fields: growth or infection tests; species: Rhinovirus; read by: cytopathic effect; read-out: EC50

ECn: concentration that inhibits the pathogen or its effect by n%. Lines come from different laboratories, so protocols vary.

CSc1nsc(-c2ccc(O)cc2)c1C#N ; cells: HELA-OHIO ; strain: Serotype 39 (group B) ; value: >10 µM
CCc1nc(-c2cc(C)c(OCCCc3cc(COC)no3)c(C)c2)no1 ; cells: HeLa ; strain: Serotype 6 ; value: 0.039 µg/mL
CSc1nsc(-c2ccc(OCCCc3ccccc3)cc2)c1C#N ; cells: HELA-OHIO ; strain: Serotype 59 (group B) ; value: >20 µM
CN(C)c1ccc(Cc2ccc(S(C)(=O)=O)cn2)cc1 ; cells: HeLa ; strain: TYPE 2 ; value: >10 µg/mL
COc1ccc(-c2cc(N3CCCC3)no2)c(O)c1 ; cells: HeLa ; strain: Serotype 42 (group A) ; value: >384 µM
CCOC(=O)c1ccc(OCCCCOc2ccc(-c3snc(SC)c3C#N)cc2)cc1 ; cells: HELA-OHIO ; strain: Serotype 39 (group B) ; value: >2 µM
Cc1c(-c2ccccc2)n(-c2ccc(F)cc2)c2ccc(C(C)C)cc2c1=O ; cells: HELA-OHIO ; strain: 1B/B632 ; value: 0.27 µg/mL
CCOC(=O)c1ccc(OCCOc2ccc(-c3snc(SC)c3C#N)cc2)cc1 ; cells: HELA-OHIO ; strain: Serotype 70 (group A) ; value: >2 µM
CCSc1ccc(Oc2ccc(C(=O)c3ccccc3)cc2)nc1C#N ; cells: HeLa ; strain: TYPE 64 ; value: >10 µg/mL
CSc1nsc(-c2ccc(OCCCOc3ccccc3)cc2)c1C#N ; cells: HELA-OHIO ; strain: Serotype 59 (group B) ; value: >20 µM
CCN(CC)c1cc(-c2ccc(OC)cc2OC)on1 ; cells: HeLa ; strain: Serotype 29 (group B) ; value: >362 µM
CS(=O)(=O)c1ccc(Oc2ccc(C(=O)c3ccccc3)cc2)nc1 ; cells: HeLa ; strain: TYPE 33 ; value: >5 µg/mL
CS(=O)(=O)c1ccc(Cc2ccc(Cl)c(Cl)c2)nc1 ; cells: HeLa ; strain: TYPE 2 ; value: 0.6 µg/mL
CCOc1cc(OC)ccc1-c1cc(N(CC)CC)no1 ; cells: HeLa ; strain: Serotype 85 (group B) ; value: 17.5 µM
CCS(=O)(=O)c1ccc(NCc2ccc(Cl)cc2)nc1C#N ; cells: HeLa ; strain: TYPE 2 ; value: 1.6 µg/mL
CCn1c2c(c(=O)c3cc(C(C)C)ccc31)Cc1ccccc1-2 ; cells: HELA-OHIO ; strain: TYPE 1A/E28 ; value: 2.6 µg/mL
CS(=O)(=O)c1ccc(NCc2ccc(Cl)c(Cl)c2)nc1 ; cells: HeLa ; strain: HTYPE NK'S ; value: 5 µg/mL
Cc1c(-c2ccccc2)n(-c2cccc(F)c2)c2ccc(C(C)C)cc2c1=O ; cells: HELA-OHIO ; strain: 1B/B632 ; value: 0.18 µg/mL
CCOc1cc(CCCOc2c(C)cc(-c3noc(C)n3)cc2C)on1 ; cells: HeLa ; strain: Serotype 1B ; value: 0.015 µg/mL
C#CCOc1cc(OC)ccc1-c1cc(N(CC)CC)no1 ; cells: HeLa ; strain: Serotype 89 (group B) ; value: >40 µM
CSc1nsc(-c2ccc(OCCOc3ccc(C#N)cc3)cc2)c1C#N ; cells: HELA-OHIO ; strain: Serotype 42 (group A) ; value: >2 µM
CSc1nsc(-c2ccc(OCc3ccccc3)cc2)c1C#N ; cells: HELA-OHIO ; strain: Serotype 9 (group B) ; value: 3 µM
CSc1nsc(-c2ccc(OCCCOc3ccc([N+](=O)[O-])cc3)cc2)c1C#N ; cells: HELA-OHIO ; strain: Serotype 59 (group B) ; value: >1 µM
Cc1nc(-c2cc(C)c(OCCCc3cc(C4CC4)no3)c(C)c2)no1 ; cells: HeLa ; strain: Serotype 67 ; value: 0.08 µg/mL
O=C(c1ccccc1)c1ccc(Oc2ccc(S(=O)(=O)Cc3ccccc3)cn2)cc1 ; cells: HeLa ; strain: TYPE 1A ; value: >10 µg/mL
COc1ccc(-c2cc(N(C)C)no2)c(O)c1 ; cells: HeLa ; strain: Serotype 14 ; value: >427 µM
CSc1ccc(Cc2ccc(S(C)(=O)=O)cn2)cc1 ; cells: HeLa ; strain: TYPE 64 ; value: 1.3 µg/mL
CSc1nsc(-c2ccccc2)c1C#N ; cells: HELA-OHIO ; strain: Serotype 70 (group A) ; value: >80 µM
CCOC(=O)c1ccc(OCCC2CCN(c3ccc(C)nn3)CC2)cc1 ; cells: WI-38 ; strain: Serotype 64 ; value: <0.1 µg/mL
CS(=O)(=O)c1ccc(NCCc2ccc(Cl)cc2)nc1 ; cells: HeLa ; strain: TYPE 1A ; value: 3.1 µg/mL

4 of the rows above, restated:

{"smiles": "CSc1nsc(-c2ccc(OCc3ccccc3)cc2)c1C#N", "cells": "HELA-OHIO", "strain": "Serotype 9 (group B)", "value": "3 µM"}
{"smiles": "CSc1nsc(-c2ccccc2)c1C#N", "cells": "HELA-OHIO", "strain": "Serotype 70 (group A)", "value": ">80 µM"}
{"smiles": "O=C(c1ccccc1)c1ccc(Oc2ccc(S(=O)(=O)Cc3ccccc3)cn2)cc1", "cells": "HeLa", "strain": "TYPE 1A", "value": ">10 µg/mL"}
{"smiles": "CS(=O)(=O)c1ccc(Cc2ccc(Cl)c(Cl)c2)nc1", "cells": "HeLa", "strain": "TYPE 2", "value": "0.6 µg/mL"}